A unit is not stated for every read-out.
Columns and labels:
[1] = Glass cleaner test with various soils on horizontal glass surface; conditions: 30 seconds, wiped, scale 1-10
[2] = Window cleaner streak test, sprayed on glass and dried without wiping; conditions: dried without wiping, scale 1-10

SMILES: [Na+].[OH-] [NaOH, sodium hydroxide]
- level of streaking, soil Butter [1]: 3
- level of streaking, soil Mayonnaise [1]: 2
- level of streaking, soil Milk [1]: 3
- level of streaking, soil Starch [1]: 1 (1=0%—no streaks)
- level of streaking, Horizontal glass [2]: 10 (10=100% surface is streaked)

From patent US20150119245A1, “Method for Producing Shelf Stable Hypochlorous Acid Solutions” (priority 2013, published 2015)
